{"source": "paper PMC12655733", "about": "“Design, Synthesis and Evaluation of the First 2-Alkynyl(aza)indole ^18F Probe Targeting α-Synuclein Aggregates” (Pharmaceuticals, 2025)", "target": "T1, Tau fibrils (isoform h2N4RTau) (Homo sapiens, UniProt P10636)", "T1 construct": "made in house; host or cells: Escherichia coli BL21(DE3), pET11d vector", "test": "Inhibition of thioflavin T binding to Tau fibrils (fluorescence competition), Ki determination", "details": "read-out: KdThT for Tau fibrils", "procedure": "The modification of R2 on the phenyl ring in the C-4 position led to an improvement in the affinity towards α-syn fibrils (33, 34, 35, 37, and 39) but not in the C-3 position (36). As the final aim was to obtain a [^18F]-labeled tracer, we prepared compound 40 and observed that it was not a good candidate because of a rather good affinity for Aβ and tau fibrils (around 10–20 nM), but not for α-syn (>100 nM).\nWild-type α-syn and Aβ1-42 were expressed in the Escherichia coli strain BL21(DE3) (Stratagene, La Jolla, CA, USA) and purified as described. The α-syn concentration was determined by measuring the absorbance at 280 nm using the extinction coefficient 5960 M^−1 cm^−1. For the Aβ1-42 peptide, the concentration was determined by a fluorometric method using the reactive compound fluorescamine (Sigma, San Jose, CA, USA) that reacts with primary amino groups to form a fluorescent product. […] The concentration of purified Tau was determined by measuring the absorbance at 280 nm using the extinction coefficient 7575 M^−1 cm^−1.\nFor assembly into fibrils, α-syn was incubated in 50 mM Tris-HCl, pH 7.5, 150 mM KCl at 37 °C under continuous shaking for 4 days. […] The images were recorded with a Gatan Orius CCD camera (Gatan, Pleasanton, CA, USA). […]"}
{"smiles": "Cc1ccc2c(c1)sc(-c1ccc(N(C)C)cc1)[n+]2C", "note": "[ThT, thioflavin T, reference compound]", "values": [{"measurement": "Kd", "result": 350, "unit": "nM"}]}
